Compound potency records, mixed from different reports. Data source: NIAID ChemDB in PubChem.

All rows: tests in culture; agent: HIV-1; read-out: inhibition

An empty or dashed field is not shown. Conditions beyond the fields shown may differ between rows. Percent inhibition refers to the dose given; in toxicity tests it is the harm to the cells.

| structure | tested at | setting | strain or isolate | read by | cell line | result |
|---|---|---|---|---|---|---|
| CNc1ncnc2nc[nH]c12 | 388 µM |  | IIIB | p24 | MOLT4 + MOLT-4 | >25% |
| Nc1ccn([C@@H]2C=C[C@@H](CO)[C@H](CO)S2)c(=O)n1 | 0.1 µM |  |  | p24 / antigen | PBMC | 25% |
| OCC(S)CS | 5 µg/mL |  | IIIB-C-3 | RT activity | MOLT-4 | 80% |
| COC(=O)C(O)[C@H]1C(C)(C)[C@H](OC(C)=O)[C@]2(O)[C@@H](OC(=O)C(C)C)[C@@]34O[C@]2(O)[C@]1(C)[C@H]3CC[C@]1(C)C4=CC(=O)O[C@H]1c1ccoc1 | 100 µM | pseudotyped | NL4-3 | luciferase / luminescence | SupT1 | 59.33% |
| O=C1OC(C2OC(=O)c3cc(O)c(O)c(O)c3-c3c(O)c(O)c4oc(=O)c5c(c(O)c(O)c6oc(=O)c3c4c65)-c3c(cc(O)c(O)c3O)C(=O)OCC2O)C2OC(=O)c3c(c(O)c(O)c(O)c3C2O)-c2c1cc(O)c(O)c2O | 20 µg/mL |  | IIIB | p24 | H9 | 90% |
| COC(=O)C(OC(C)=O)[C@H]1C(C)(C)[C@H](OC(C)=O)[C@]2(O)CC3=C(CC[C@]4(C)C3=CC(=O)O[C@H]4c3ccoc3)[C@@]1(C)C2=O | 20 µM | pseudotyped | NL4-3 | luciferase / luminescence | SupT1 | 0% |
| Cc1cn([C@H]2C[C@H](N=[N+]=[N-])[C@@H](CO)O2)c(=O)[nH]c1=O | 2.5 µg/mL |  | UCD123 | RT activity | PBMC | 95% |
| O=C1N(c2ccccc2)c2ccccc2C1(CCc1cccnc1)CCc1cccnc1 | 11 µM |  | RF | plaque count | MT-2 | 57% |
| CC(=O)Nc1ccc(OC(=O)c2ccc(N=C(N)N)cc2)cc1 | 10 µg/mL |  |  | XTT / p24 | MT-4 | 25% |
| C/C=C(\C)C(=O)O[C@@H]1[C@@H](OC(C)=O)[C@H]2[C@@H](CC=C3C[C@@H](O[C@H]4C[C@@H](OC)[C@H](O[C@@H]5OC(C)[C@@H](O[C@@H]6OC(CO)[C@@H](O)[C@H](O)C6O)[C@H](OC)C5O)C(C)O4)CC[C@@]32C)[C@@]2(O)CC[C@H](C(C)=O)[C@@]12C | 30 µM | pseudotyped |  | luciferase | SupT1 | 16.48% |
| O=C1N(c2ccccc2)c2ccccc2C1(CC1=CCN(CC2CC2)CC1)CC1=CCN(CC2CC2)CC1 | 11 µM |  | RF | plaque count | MT-2 | 13% |
| CCC(C1=C(O)CC(CC)(c2cccc(NS(=O)(=O)c3ccc(C#N)cn3)c2)OC1=O)c1cccc(NS(=O)(=O)c2ccc(C#N)cn2)c1 | 3 µM |  | IIIB | p24 | H9 | 0% |
| C/C=C(\C)C(=O)O[C@@H]1[C@@H](OC(C)=O)[C@H]2[C@@H](CC[C@H]3C[C@@H](O[C@H]4C[C@@H](OC)[C@H](O[C@@H]5OC(C)[C@@H](O[C@@H]6OC(CO)[C@@H](O[C@@H]7OC(CO)[C@@H](O)[C@H](O)C7O)[C@H](O)C6O)[C@H](OC)C5O)C(C)O4)CC[C@@]32C)[C@@]2(O)CC[C@H](C(C)=O)[C@@]12C | 30 µM | pseudotyped |  | luciferase | SupT1 | 28.35% |
| C=CC1=C(C)C(/C=c2/[nH]/c(=C/c3[nH]c(/C=C4/NC(=O)C(C)=C4C=C)c(C)c3CCC(=O)O)c(CCC(=O)O)c2C)=NC1=O | 66.7 µg/mL |  | LAV | syncytia | MOLT-4 | 100% |
| Nc1ncnc2c1ncn2[C@@H]1O[C@H](CO)[C@@H](O)[C@H]1O | 1531 µM |  | IIIB | p24 | MOLT4 + MOLT-4 | >25% |
| C/C=C(\C)C(=O)O[C@H]1[C@H]2[C@@H](CC[C@H]3C[C@@H](O[C@H]4C[C@@H](OC)[C@H](O[C@@H]5OC(C)[C@@H](O[C@@H]6OC(CO)[C@@H](O)[C@H](O)C6O)[C@H](OC)C5O)C(C)O4)CC[C@@]32C)[C@@]2(O)CC[C@H](C(C)=O)[C@@]2(C)[C@@H]1OC(=O)c1ccccc1 | 30 µM | pseudotyped |  | luciferase | SupT1 | 25.52% |
| Cc1cn([C@H]2C[C@H](N=[N+]=[N-])[C@@H](CO)O2)c(=O)[nH]c1=O | 1 µM |  | IIIB | p24 | PBL | 100% |
| NC(=O)NO | 50 µM |  | IIIB | p24 | PBMC | 50% |
| Nc1ncnc2c1ccn2[C@@H]1O[C@H](CO)[C@@H](O)[C@H]1O | 5 µg/mL |  | LAV Laboratory strain | cytopathic effect | ATH8 | 0% |
| O=C1N(Cc2ccc3[nH]c(=O)[nH]c3c2)[C@H](Cc2ccccc2)[C@H](O)[C@@H](O)[C@@H](Cc2ccccc2)N1Cc1ccc2[nH]c(=O)[nH]c2c1 | 65 µM |  | RF |  | MT-2 | <90% |
| Cc1cn([C@H]2C[C@H](N=[N+]=[N-])[C@@H](CO)O2)c(=O)[nH]c1=O | 0.625 µM |  | IIIB | p24 | MT-4 | 99.62% |
| Nc1nc2c(ncn2[C@H]2CC[C@@H](CO)O2)c(=O)[nH]1 | 1 µM |  | IIIB | syncytia | MT-2 | 58% |
| Nc1ncnc2nc[nH]c12 | 254 µM |  | IIIB | p24 | MOLT4 + MOLT-4 | >25% |
| CS(=O)(=O)N1CCC(CC2C(=O)N(c3ccccc3)c3ccccc32)CC1 | 11.3 µM |  | RF | plaque count | MT-2 | 36% |
| O=C1N(Cc2ccc(CO)cc2)[C@H](Cc2ccccc2)[C@H](O)[C@@H](O)[C@@H](Cc2ccccc2)N1Cc1ccc(CO)cc1 | 0.14 µM |  | RF | virus yield | PBMC | 90% |
| Cc1cn([C@H]2C[C@H](N=[N+]=[N-])[C@@H](CO)O2)c(=O)[nH]c1=O | 0.22 µM |  |  | cytopathic effect | MT-4 | 70% |
| Nc1ncnc2c1ncn2C[C@H](O)CO | 100 µg/mL |  | LAV Laboratory strain | cytopathic effect | ATH8 | 0% |
| CCC(C)C(=O)O[C@H]1C(C)(C)[C@H](C(O)C(=O)OC)[C@]2(C)C(=O)[C@@]1(O)[C@@H](O)C1=C3CC(=O)O[C@@H](c4ccoc4)[C@]3(C)CC[C@@H]12 | 20 µM | pseudotyped | NL4-3 | luciferase / luminescence | SupT1 | 0% |
| Nc1ncc2[nH]cnc2n1 | 612 µM |  | IIIB | p24 | MOLT4 + MOLT-4 | >25% |
| CCC(C)C(=O)O[C@H]1[C@@]2(C)C[C@]3(O)[C@@]1(O)C(=O)C1=C(CC[C@]4(C)C1=CC(=O)O[C@H]4c1ccoc1)[C@]3(C)[C@H]2C(O)C(=O)OC | 100 µM | pseudotyped | NL4-3 | luciferase / luminescence | SupT1 | 31.83% |
| Cc1ccnc2c1NC(=O)c1cccnc1N2C1CC1 | 0.316 µM |  | LAV-1 | syncytia | HT4 + HT4-6C | 84% |
| O=C(Nc1cc(S(=O)(=O)O)cc2cc(S(=O)(=O)O)c(N=Nc3ccc(N=Nc4c(S(=O)(=O)O)cc5cc(S(=O)(=O)O)cc(NC(=O)c6cccc(Cl)c6Cl)c5c4O)cc3)c(O)c12)c1ccc(Cl)cc1Cl | 1.26 µg/mL |  | SF162 |  | MONO/MACRO + Monocytes/macrophages | 90% |
| O=C1O[C@H]2[C@@H]3OC(=O)c4cc(O)c(O)c(O)c4-c4c(cc(O)c(O)c4O)C(=O)OC[C@H]2O[C@@H](OC(=O)c2cc(O)c(O)c(O)c2)[C@@H]3OC(=O)c2cc(O)c(O)c3c2[C@@H]2C1=CC(=O)[C@](O)(O3)C2(O)O | 2.5 µg/mL |  |  | p24 | MAGI | 67% |

A second listing of 3 rows from above:

Cc1cn([C@H]2C[C@H](N=[N+]=[N-])[C@@H](CO)O2)c(=O)[nH]c1=O ; tested at: 2.5 µg/mL ; strain or isolate: UCD123 ; read by: RT activity ; cell line: PBMC ; result: 95%
CNc1ncnc2nc[nH]c12 ; tested at: 388 µM ; strain or isolate: IIIB ; read by: p24 ; cell line: MOLT4 + MOLT-4 ; result: >25%
C/C=C(\C)C(=O)O[C@@H]1[C@@H](OC(C)=O)[C@H]2[C@@H](CC=C3C[C@@H](O[C@H]4C[C@@H](OC)[C@H](O[C@@H]5OC(C)[C@@H](O[C@@H]6OC(CO)[C@@H](O)[C@H](O)C6O)[C@H](OC)C5O)C(C)O4)CC[C@@]32C)[C@@]2(O)CC[C@H](C(C)=O)[C@@]12C ; tested at: 30 µM ; setting: pseudotyped ; read by: luciferase ; cell line: SupT1 ; result: 16.48%